# Assay results taken from patent US6974685B2, “High production method of prenyl alcohol using saccharomyces cells” (Toyota Jidosha Kabushiki Kaisha 1, priority 2000, dated 2005).
# Tests used:
# Format in all cases: cell-based
# [1] = tested on: Saccharomyces cerevisiae strain ATCC 64031; test: Effect of tocopherol on prenyl alcohol secretory production, GC/MS (Example 5, Table 1)
# [2] = tested on: K 4104 Saccharomyces cerevisiae; test: Test-tube culture in YM or YM + 5% glucose + 1% soybean oil (Example 7)
# [3] = tested on: IFO 0215 Saccharomyces unisporus; test: Test-tube culture with ergosterol and squalene synthesis inhibitor SQAD, with or without glucose and soybean oil (Example 8)
# [4] = tested on: IFO 0622 Candida glabrata; test: as above
# [5] = tested on: IFO 0717 Yarrowia lopolytica; test: as above
# [6] = tested on: IFO 0948 Komagataella pastoris; test: as above
# [7] = tested on: IFO 0974 Kuraishia capsulata; test: as above
# [8] = tested on: IFO 1892 Saccharomyces kluyeri; test: as above
# [9] = tested on: IFO 3032 Baccilus amyloliquefaciens; test: Control culture of bacterial strain in KB medium (Example 11, Table 14); settings: treated with phosphatase
# [10] = tested on: IFO 3762 Staphylococcus epidermidis; test: as above; settings: treated with phosphatase
# [11] = YM + 5% glucose + 1% soybean oil, 3 days
# [12] = YM + 5% glucose + 1% soybean oil, 6 days
# [13] = YM + 4 mg/L ergosterol, SQAD 0 mg/L, 3 days
# [14] = YM + 4 mg/L ergosterol, SQAD 0 mg/L, 7 days
# [15] = YM + 4 mg/L ergosterol, SQAD 1 mg/L, 3 days
# [16] = YM + 4 mg/L ergosterol, SQAD 1 mg/L, 7 days
# [17] = YM + 4 mg/L ergosterol, SQAD 20 mg/L, 3 days
# [18] = YM + 4 mg/L ergosterol, SQAD 20 mg/L, 7 days
# [19] = YM + 5% glucose + 1% soybean oil + 4 mg/L ergosterol, SQAD 0 mg/L, 3 days
# [20] = YM + 5% glucose + 1% soybean oil + 4 mg/L ergosterol, SQAD 0 mg/L, 7 days
# [21] = YM + 5% glucose + 1% soybean oil + 4 mg/L ergosterol, SQAD 1 mg/L, 3 days
# [22] = YM + 5% glucose + 1% soybean oil + 4 mg/L ergosterol, SQAD 1 mg/L, 7 days
# [23] = YM + 5% glucose + 1% soybean oil + 4 mg/L ergosterol, SQAD 20 mg/L, 3 days
# [24] = YM + 5% glucose + 1% soybean oil + 4 mg/L ergosterol, SQAD 20 mg/L, 7 days
compound,measurement,setting,value
"CC(C)=CCCC(C)=CCCC(C)=CCO [FOH, farnesol]",Cell fraction,[1]; Tocopherol 0 μM,7034 μg/L of culture solution
same,Supernatant fraction,[1]; Tocopherol 0 μM,3102 μg/L of culture solution
same,Cell fraction,[1]; Tocopherol 20 μM,5469 μg/L of culture solution
same,Supernatant fraction,[1]; Tocopherol 20 μM,3819 μg/L of culture solution
same,Cell fraction,[1]; Tocopherol 200 μM,2695 μg/L of culture solution
same,Supernatant fraction,[1]; Tocopherol 200 μM,6741 μg/L of culture solution
same,Cell fraction,[2]; [11],241.1 μg/L of culture solution
same,Supernatant fraction,[2]; [11],281.0 μg/L of culture solution
same,Cell fraction,[2]; [12],155.3 μg/L of culture solution
same,Supernatant fraction,[2]; [12],338.2 μg/L of culture solution
same,Cell fraction,[2]; YM medium (Difco),15.8 μg/L of culture solution
same,Supernatant fraction,[2]; YM medium (Difco),0.0 μg/L of culture solution
same,Cell fraction,[3]; [13],0.0 μg/L of culture solution
same,Supernatant fraction,[3]; [13],0.0 μg/L of culture solution
same,Cell fraction,[3]; [14],0.0 μg/L of culture solution
same,Supernatant fraction,[3]; [14],0.0 μg/L of culture solution
same,Cell fraction,[3]; [15],0.0 μg/L of culture solution
same,Supernatant fraction,[3]; [15],0.0 μg/L of culture solution
same,Cell fraction,[3]; [16],0.0 μg/L of culture solution
same,Supernatant fraction,[3]; [16],0.0 μg/L of culture solution
same,Cell fraction,[3]; [17],0.0 μg/L of culture solution
same,Supernatant fraction,[3]; [17],3.2 μg/L of culture solution
same,Cell fraction,[3]; [18],0.0 μg/L of culture solution
same,Supernatant fraction,[3]; [18],0.0 μg/L of culture solution
same,Cell fraction,[3]; [19],0.0 μg/L of culture solution
same,Supernatant fraction,[3]; [19],8.2 μg/L of culture solution
same,Cell fraction,[3]; [20],0.0 μg/L of culture solution
same,Supernatant fraction,[3]; [20],14.8 μg/L of culture solution
same,Cell fraction,[3]; [21],0.0 μg/L of culture solution
same,Supernatant fraction,[3]; [21],5.2 μg/L of culture solution
same,Cell fraction,[3]; [22],0.0 μg/L of culture solution
same,Supernatant fraction,[3]; [22],17.5 μg/L of culture solution
same,Cell fraction,[3]; [23],16.9 μg/L of culture solution
same,Supernatant fraction,[3]; [23],68.4 μg/L of culture solution
same,Cell fraction,[3]; [24],255.6 μg/L of culture solution
same,Supernatant fraction,[3]; [24],433.7 μg/L of culture solution
same,Cell fraction,[4]; [13],1.9 μg/L of culture solution
same,Supernatant fraction,[4]; [13],3.1 μg/L of culture solution
same,Cell fraction,[4]; [14],0.0 μg/L of culture solution
same,Supernatant fraction,[4]; [14],0.0 μg/L of culture solution
same,Cell fraction,[4]; [15],1.4 μg/L of culture solution
same,Supernatant fraction,[4]; [15],3.5 μg/L of culture solution
same,Cell fraction,[4]; [16],0.0 μg/L of culture solution
same,Supernatant fraction,[4]; [16],0.0 μg/L of culture solution
same,Cell fraction,[4]; [17],212.0 μg/L of culture solution
same,Supernatant fraction,[4]; [17],243.5 μg/L of culture solution
same,Cell fraction,[4]; [18],5.5 μg/L of culture solution
same,Supernatant fraction,[4]; [18],0.0 μg/L of culture solution
same,Cell fraction,[4]; [19],28.8 μg/L of culture solution
same,Supernatant fraction,[4]; [19],106.1 μg/L of culture solution
same,Cell fraction,[4]; [20],43.7 μg/L of culture solution
same,Supernatant fraction,[4]; [20],378.3 μg/L of culture solution
same,Cell fraction,[4]; [21],9.7 μg/L of culture solution
same,Supernatant fraction,[4]; [21],149.2 μg/L of culture solution
same,Cell fraction,[4]; [22],133.3 μg/L of culture solution
same,Supernatant fraction,[4]; [22],530.0 μg/L of culture solution
same,Cell fraction,[4]; [23],331.6 μg/L of culture solution
same,Supernatant fraction,[4]; [23],12186.9 μg/L of culture solution
same,Cell fraction,[4]; [24],2750.6 μg/L of culture solution
same,Supernatant fraction,[4]; [24],22147.1 μg/L of culture solution
same,Cell fraction,[5]; [13],0.0 μg/L of culture solution
same,Supernatant fraction,[5]; [13],0.0 μg/L of culture solution
same,Cell fraction,[5]; [14],0.0 μg/L of culture solution
same,Supernatant fraction,[5]; [14],0.0 μg/L of culture solution
same,Cell fraction,[5]; [15],0.0 μg/L of culture solution
same,Supernatant fraction,[5]; [15],1.3 μg/L of culture solution
same,Cell fraction,[5]; [16],1.5 μg/L of culture solution
same,Supernatant fraction,[5]; [16],2.1 μg/L of culture solution
same,Cell fraction,[5]; [17],39.7 μg/L of culture solution
same,Supernatant fraction,[5]; [17],39.7 μg/L of culture solution
same,Cell fraction,[5]; [18],10.6 μg/L of culture solution
same,Supernatant fraction,[5]; [18],10.6 μg/L of culture solution
same,Cell fraction,[5]; [19],6.7 μg/L of culture solution
same,Supernatant fraction,[5]; [19],8.7 μg/L of culture solution
same,Cell fraction,[5]; [20],0.0 μg/L of culture solution
same,Supernatant fraction,[5]; [20],95.3 μg/L of culture solution
same,Cell fraction,[5]; [21],165.3 μg/L of culture solution
same,Supernatant fraction,[5]; [21],100.1 μg/L of culture solution
same,Cell fraction,[5]; [22],0.0 μg/L of culture solution
same,Supernatant fraction,[5]; [22],405.4 μg/L of culture solution
same,Cell fraction,[5]; [23],882.1 μg/L of culture solution
same,Supernatant fraction,[5]; [23],983.3 μg/L of culture solution
same,Cell fraction,[5]; [24],1025.1 μg/L of culture solution
same,Supernatant fraction,[5]; [24],6812.9 μg/L of culture solution
same,Cell fraction,[6]; [13],0.0 μg/L of culture solution
same,Supernatant fraction,[6]; [13],0.0 μg/L of culture solution
same,Cell fraction,[6]; [14],0.0 μg/L of culture solution
same,Supernatant fraction,[6]; [14],0.0 μg/L of culture solution
same,Cell fraction,[6]; [15],0.0 μg/L of culture solution
same,Supernatant fraction,[6]; [15],0.0 μg/L of culture solution
same,Cell fraction,[6]; [16],0.0 μg/L of culture solution
same,Supernatant fraction,[6]; [16],0.0 μg/L of culture solution
same,Cell fraction,[6]; [17],3.4 μg/L of culture solution
same,Supernatant fraction,[6]; [17],3.4 μg/L of culture solution
same,Cell fraction,[6]; [18],0.0 μg/L of culture solution
same,Supernatant fraction,[6]; [18],0.0 μg/L of culture solution
same,Cell fraction,[6]; [19],13.8 μg/L of culture solution
same,Supernatant fraction,[6]; [19],73.5 μg/L of culture solution
same,Cell fraction,[6]; [20],4.3 μg/L of culture solution
same,Supernatant fraction,[6]; [20],101.6 μg/L of culture solution
same,Cell fraction,[6]; [21],22.9 μg/L of culture solution
same,Supernatant fraction,[6]; [21],82.2 μg/L of culture solution
same,Cell fraction,[6]; [22],53.4 μg/L of culture solution
same,Supernatant fraction,[6]; [22],569.8 μg/L of culture solution
same,Cell fraction,[6]; [23],608.4 μg/L of culture solution
same,Supernatant fraction,[6]; [23],2956.2 μg/L of culture solution
same,Cell fraction,[6]; [24],537.5 μg/L of culture solution
same,Supernatant fraction,[6]; [24],5513.3 μg/L of culture solution
same,Cell fraction,[7]; [13],0.0 μg/L of culture solution
same,Supernatant fraction,[7]; [13],0.0 μg/L of culture solution
same,Cell fraction,[7]; [14],0.0 μg/L of culture solution
same,Supernatant fraction,[7]; [14],0.0 μg/L of culture solution
same,Cell fraction,[7]; [15],0.0 μg/L of culture solution
same,Supernatant fraction,[7]; [15],0.0 μg/L of culture solution
same,Cell fraction,[7]; [16],0.0 μg/L of culture solution
same,Supernatant fraction,[7]; [16],0.0 μg/L of culture solution
same,Cell fraction,[7]; [17],0.0 μg/L of culture solution
same,Supernatant fraction,[7]; [17],0.0 μg/L of culture solution
same,Cell fraction,[7]; [18],0.0 μg/L of culture solution
same,Supernatant fraction,[7]; [18],0.0 μg/L of culture solution
same,Cell fraction,[7]; [19],3.3 μg/L of culture solution
same,Supernatant fraction,[7]; [19],24.8 μg/L of culture solution
same,Cell fraction,[7]; [20],3.2 μg/L of culture solution
same,Supernatant fraction,[7]; [20],167.5 μg/L of culture solution
same,Cell fraction,[7]; [21],16.1 μg/L of culture solution
same,Supernatant fraction,[7]; [21],1061.9 μg/L of culture solution
same,Cell fraction,[7]; [22],24.8 μg/L of culture solution
same,Supernatant fraction,[7]; [22],713.7 μg/L of culture solution
same,Cell fraction,[7]; [23],149.2 μg/L of culture solution
same,Supernatant fraction,[7]; [23],2022.7 μg/L of culture solution
same,Cell fraction,[7]; [24],362.1 μg/L of culture solution
same,Supernatant fraction,[7]; [24],8268.5 μg/L of culture solution
same,Cell fraction,[8]; [13],0.0 μg/L of culture solution
same,Supernatant fraction,[8]; [13],0.0 μg/L of culture solution
same,Cell fraction,[8]; [14],0.0 μg/L of culture solution
same,Supernatant fraction,[8]; [14],0.0 μg/L of culture solution
same,Cell fraction,[8]; [15],0.0 μg/L of culture solution
same,Supernatant fraction,[8]; [15],0.0 μg/L of culture solution
same,Cell fraction,[8]; [16],0.0 μg/L of culture solution
same,Supernatant fraction,[8]; [16],0.0 μg/L of culture solution
same,Cell fraction,[8]; [17],0.0 μg/L of culture solution
same,Supernatant fraction,[8]; [17],0.0 μg/L of culture solution
same,Cell fraction,[8]; [18],0.0 μg/L of culture solution
same,Supernatant fraction,[8]; [18],0.0 μg/L of culture solution
same,Cell fraction,[8]; [19],3.7 μg/L of culture solution
same,Supernatant fraction,[8]; [19],70.4 μg/L of culture solution
same,Cell fraction,[8]; [20],0.0 μg/L of culture solution
same,Supernatant fraction,[8]; [20],158.5 μg/L of culture solution
same,Cell fraction,[8]; [21],2.3 μg/L of culture solution
same,Supernatant fraction,[8]; [21],51.4 μg/L of culture solution
same,Cell fraction,[8]; [22],5.0 μg/L of culture solution
same,Supernatant fraction,[8]; [22],188.3 μg/L of culture solution
same,Cell fraction,[8]; [23],16.5 μg/L of culture solution
same,Supernatant fraction,[8]; [23],62.9 μg/L of culture solution
same,Cell fraction,[8]; [24],227.8 μg/L of culture solution
same,Supernatant fraction,[8]; [24],935.3 μg/L of culture solution
same,Cell fraction,[9],0.0 μg/L of culture solution
same,Supernatant fraction,[9],4.1 μg/L of culture solution
same,Cell fraction,[10],0.0 μg/L of culture solution
same,Supernatant fraction,[10],6.1 μg/L of culture solution
